A mixed list of measured activities; the numbers were collected in NIAID ChemDB.

All rows: growth or infection tests; agent: Candida albicans; measure: MIC

Lines come from different laboratories, so protocols vary. Blank or dashed fields: not listed here.

smiles | strain | result
CCCSc1nc(C(N)=O)cnc1CC(C)C | ATCC 44859 | >31.25 µg/mL
CC(C)CCOC(=O)/C=C/c1ccccc1 |  | 0.002 µg/mL
CCCCCOc1ccc(-c2ccc(-c3ccc(C(=O)N[C@H]4CCCNC(=O)[C@@H]5C[C@H](N)CN5C(=O)[C@H](CCC(=O)O)NC(=O)C(CCc5ccc(O)cc5)NC(=O)[C@@H]5C[C@@H](O)CN5C(=O)[C@H]([C@@H](C)O)NC4=O)cc3)cc2)cc1 | ATCC CCH442 | 0.2 µg/mL
Cc1cc(=O)oc2cc(OCC(O)Cn3cncn3)cc(OCC(O)Cn3cncn3)c12 |  | 1 µg/mL
CCOC(=O)/C=C/c1ccccc1 |  | 0.002 µg/mL
CC(O)C1NC(=O)C(CCc2ccc(O)cc2)NC(=O)C2C[C@@H](O)CN2C(=O)C(C(C)O)NC(=O)[C@@H](NC(=O)c2ccccc2)CCCNC(=O)C2C[C@H](N)CN2C1=O | ATCC 62376 | >100 µg/mL
CCCc1ncc(C(N)=S)nc1Sc1ccccc1 | ATCC 44859 | >31.25 µg/mL
CN(C)c1ccc(CN2CCN(Cc3ccc(N(C)C)cc3)[C]2=[Ru]([Cl])[Cl])cc1.Cc1ccc(C(C)C)cc1 |  | 100 µg/mL
CO[C@H]1[C@@H](O)[C@H](n2ccc(=O)[nH]c2=O)O[C@@H]1[C@@H](O[C@H]1OC(C(=O)N[C@H]2CCC[C@@H](C)NC2=O)=C[C@H](O)[C@@H]1O)C(N)=O | YU-1200 | >100 µg/mL
CSC1=NC2=C(C(=O)CCC2)C(c2ccc(F)cc2)N1C | Robin Berkho (AUCC-1720) | >40 µg/mL
O=C(O)/C(Br)=C(\Br)c1ccccc1 |  | 0.001 µg/mL
COc1ccccc1-c1n[nH]c2c1CCCC2 | 264/624 | 7.8 µg/mL
CCCCCCCCN[C@H]1C[C@H]2C(=O)NCCC[C@H](NC(=O)c3ccc(-c4ccc(-c5ccc(OCCCCC)cc5)cc4)cc3)C(=O)N[C@@H]([C@@H](C)O)C(=O)N3C[C@H](O)C[C@H]3C(=O)N[C@@H](CCc3ccc(O)cc3)C(=O)N[C@@H]([C@@H](C)O)C(=O)N2C1 | ATCC CCH442 | 12.5 µg/mL
COCCN1CCN(C)[C]1=[Ru]([Cl])[Cl].Cc1ccc(C(C)C)cc1 |  | >800 µg/mL
O=C(O)/C(O)=C(\O)c1ccccc1 |  | 0.003 µg/mL
Cn1c(-c2ccccc2)nsc1=O |  | 0.13 µg/mL
CCCCCOc1ccc(-c2ccc(-c3ccc(C(=O)N[C@H]4CCCNC(=O)C5C[C@H](N)CN5C(=O)C(C(C)O)NC(=O)C(OCc5ccccc5)NC(=O)C5CC(O)CN5C(=O)C(C(C)O)NC4=O)cc3)cc2)cc1 | ATCC 10231 | 1.56 µg/mL
CCCSc1nc(C(N)=S)cnc1C(C)(C)C | ATCC 44859 | >31.25 µg/mL
CCCCCCCCOc1ccc(-c2ccc(-c3ccc(CN[C@H]4CCCNC(=O)C5C[C@H](N)CN5C(=O)C(C(C)O)NC(=O)C(CCc5ccc(O)cc5)NC(=O)C5C[C@@H](O)CN5C(=O)C(C(C)O)NC4=O)cc3)cc2)cc1 | ATCC 62376 | 0.39 µg/mL
O=C1CCCC2=C1C(c1ccc(F)cc1)NC(=S)N2 | Robin Berkho (AUCC-1720) | >40 µg/mL
CC(C)N=C(N)c1ccc2nc(-c3ccc4c(c3)Cc3cc(-c5nc6ccc(C(N)=NC(C)C)cc6[nH]5)ccc3-4)[nH]c2c1 | Isolate 2281 | 1.56 µg/mL
CCCCSc1nc(C(N)=S)cnc1CC(C)C | ATCC 44859 | >31.25 µg/mL
CCCCCCCCCCCCOc1ccc(-c2ccc(C(=O)N[C@H]3CCCNC(=O)C4C[C@H](N)CN4C(=O)C(C(C)O)NC(=O)C(CCc4ccc(O)cc4)NC(=O)C4C[C@@H](O)CN4C(=O)C(C(C)O)NC3=O)cc2)cc1 | ATCC CCH442 | 0.2 µg/mL
O=C(/C=C/c1ccccc1)OCc1ccccc1 |  | 0.002 µg/mL
CCn1c(-c2ccncc2)noc1=S |  | 0.95 µg/mL
Cc1cc(=O)oc2cc(OCC(O)Cn3cnc4ccccc43)cc(OCC(O)Cn3cnc4ccccc43)c12 |  | >512 µg/mL
O=C1CC(c2ccc(Cl)cc2)N(OCCc2nc3ncccc3[nH]2)C(c2ccc(Cl)cc2)C1 | 51 (NCIM-C27) | 25 µg/mL
Cc1nc2c(c(=O)[nH]1)SC1=NC3=C(C(=O)CCC3)C(c3ccc(F)cc3)N12 | Robin Berkho (AUCC-1720) | >40 µg/mL
Brc1ccc(-c2n[nH]c3c2CCCC3)cc1 | 264/624 | 7.8 µg/mL
CO[C@H]1[C@@H](O)[C@H](n2ccc(=O)[nH]c2=O)O[C@@H]1[C@@H](O[C@H]1OC(C(=O)O)=C[C@H](O)[C@@H]1O)C(N)=O | YU-1200 | >100 µg/mL
Cc1ccc(-c2n[nH]c3c2CCCC3)c(C)c1 | 264/624 | 125 µg/mL
COc1ccc(C2CC(=O)C(C)C(c3ccc(OC)cc3)N2OCCc2nc3ncccc3[nH]2)cc1 | 6 (NCIM-C27) | 50 µg/mL
CCC(C)CC(C)CCCCCCCCC(=O)N[C@H]1C[C@@H](O)[C@H](NCCN)NC(=O)[C@@H]2[C@@H](O)CCN2C(=O)[C@H]([C@H](O)CCN)NC(=O)[C@H]([C@H](O)[C@@H](O)c2ccc(O)cc2)NC(=O)[C@@H]2C[C@@H](O)CN2C(=O)[C@H]([C@@H](C)O)NC1=O | MY1055 | 0.25 µg/mL
O=C(O)/C=C/c1ccccc1 |  | 0.002 µg/mL
CCC(C)n1ncn(-c2ccc(N3CCN(c4ccc(OC[C@H]5CO[C@](Cn6cncn6)(c6ccc(Cl)cc6Cl)O5)cc4)CC3)cc2)c1=O | Isolate CA-11 | >8 µg/mL
CCn1c(-c2ccccn2)nsc1=O |  | 0.12 µg/mL
CSc1nc(C(N)=O)cnc1CC(C)C | ATCC 44859 | >31.25 µg/mL
CC[C@@H]([C@H](C)O)n1ncn(-c2ccc(N3CCN(c4ccc(OC[C@@H]5CO[C@@](Cn6cncn6)(c6ccc(F)cc6F)C5)cc4)CC3)cc2)c1=O | Isolate CA-9 | >4 µg/mL
CC(C)(C)c1ncc(C(N)=S)nc1Sc1ccccc1 | ATCC 44859 | >31.25 µg/mL
CC(=O)NC1=C(C#N)SC2=NC3=C(C(=O)CCC3)C(c3ccc(F)cc3)N21 | Robin Berkho (AUCC-1720) | >40 µg/mL
COCCN1CCN(C)[C]1=[Ru]([Cl])[Cl].Cc1c(C)c(C)c(C)c(C)c1C |  | 400 µg/mL
O=C1CCCC2=C1C(c1ccc(F)cc1)N1C(=N2)Sc2c1nc[nH]c2=O | Robin Berkho (AUCC-1720) | >40 µg/mL
Cc1c(C)c(C)c(C)c(C)c1C.Cc1ccc(N2C=NCCC2)cc1.[Cl][Ru][Cl] |  | 400 µg/mL
CC1C(=O)CC(c2ccc(Cl)cc2)N(OCCc2nc3ncccc3[nH]2)C1c1ccc(Cl)cc1 | 6 (NCIM-C27) | 50 µg/mL
CSc1nc(C(N)=S)cnc1C(C)(C)C | ATCC 44859 | >31.25 µg/mL
S=c1onc(-c2ccccn2)n1-c1ccccc1 |  | 0.39 µg/mL
CCCc1ncc(C(N)=O)nc1SCC | ATCC 44859 | >31.25 µg/mL
C1=NCCCN1Cc1ccccc1.Cc1c(C)c(C)c(C)c(C)c1C.[Cl][Ru][Cl] |  | 400 µg/mL

The first 7 rows once more:

smiles	strain	result
CCCSc1nc(C(N)=O)cnc1CC(C)C	ATCC 44859	>31.25 µg/mL
CC(C)CCOC(=O)/C=C/c1ccccc1		0.002 µg/mL
CCCCCOc1ccc(-c2ccc(-c3ccc(C(=O)N[C@H]4CCCNC(=O)[C@@H]5C[C@H](N)CN5C(=O)[C@H](CCC(=O)O)NC(=O)C(CCc5ccc(O)cc5)NC(=O)[C@@H]5C[C@@H](O)CN5C(=O)[C@H]([C@@H](C)O)NC4=O)cc3)cc2)cc1	ATCC CCH442	0.2 µg/mL
Cc1cc(=O)oc2cc(OCC(O)Cn3cncn3)cc(OCC(O)Cn3cncn3)c12		1 µg/mL
CCOC(=O)/C=C/c1ccccc1		0.002 µg/mL
CC(O)C1NC(=O)C(CCc2ccc(O)cc2)NC(=O)C2C[C@@H](O)CN2C(=O)C(C(C)O)NC(=O)[C@@H](NC(=O)c2ccccc2)CCCNC(=O)C2C[C@H](N)CN2C1=O	ATCC 62376	>100 µg/mL
CCCc1ncc(C(N)=S)nc1Sc1ccccc1	ATCC 44859	>31.25 µg/mL